# Potato spindle tuber viroid, loop 15: variant abundance in plants

Data from the supplement of Wu et al. 2024, doi:10.1371/journal.ppat.1012142.

Region: loop 15 of PSTVd (intermediate strain), upper and lower strand joined, each 5' to 3', the first 7 letters being the upper strand, closing pairs included. Wild type: GGAAACCGCUACUAC. Varied positions (N): GGAAACCGNNNNNNC.

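Three N. benthamiana plants were inoculated with the whole mutant pool. Samples came from the inoculated region at 5 days, the leaf margin at 10 and upper systemic leaves at 12.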

Values are reads per thousand in the sample; higher means more abundant, 0 means not found.
Each value is the mean of three plants.
"Pool" is the share in the plasmid pool used as inoculum, on the same scale.
The inoculated region was read from the minus strand, the other sites from the plus strand.
IR is the inoculated region, LM the leaf margin, Sys the systemic leaves.
Sequences that differ at fixed positions probably stem from PCR or sequencing errors, and defective variants can be carried along by functional ones.
For reference, wild type rose from 33.9 per thousand in the pool to 202, 200, 159 (inoculated region), 724, 746, 710 (leaf margin) and 856, 883, 880 (systemic leaves).
Samples held 43,870 to 66,106 reads, so the smallest values rest on one or two reads.

sequence | pool | IR | LM | Sys
GGAAACCGAAACAAC | 0.160 | 0.412 | 0.118 | 0.0161
GGAAACCGAACAAAC | 0.288 | 0.0857 | 0.00668 | 0
GGAAACCGAAGCACC | 0.352 | 0.0643 | 0.0175 | 0.00760
GGAAACCGAAGUCCC | 0.176 | 0.123 | 0.00668 | 0
GGAAACCGAAUGUCC | 0.192 | 0.0622 | 0.00742 | 0
GGAAACCGACGGCCC | 0.240 | 0.0817 | 0.0108 | 0
GGAAACCGACGGUAC | 0.192 | 0.577 | 0.0978 | 0.0518
GGAAACCGACGUCCC | 0.272 | 0.0589 | 0.0208 | 0.00537
GGAAACCGAGAAUAC | 0.304 | 0.359 | 0.140 | 0.0540
GGAAACCGAGCUUCC | 0.160 | 0.0803 | 0.00539 | 0.00537
GGAAACCGAUACAUC | 0.192 | 0.312 | 0.117 | 0.0268
GGAAACCGAUGAAGC | 0.224 | 0.0813 | 0 | 0
GGAAACCGAUGUAUC | 0.288 | 0.115 | 0.0175 | 0
GGAAACCGAUUAGAC | 0.176 | 0.0905 | 0.0141 | 0
GGAAACCGAUUCGCC | 0.192 | 0.121 | 0.0141 | 0
GGAAACCGAUUGACC | 0.240 | 0.0655 | 0.00742 | 0
GGAAACCGCACUACC | 0.128 | 0.0855 | 0.0241 | 0
GGAAACCGCAGGAAC | 0.240 | 0.140 | 0.00668 | 0.00537
GGAAACCGCAUUAAC | 0.144 | 0.104 | 0.0187 | 0
GGAAACCGCCAUUGC | 0.0960 | 0.308 | 0.101 | 0.0720
GGAAACCGCCGAGGC | 0.208 | 0.109 | 0.0121 | 0.00537
GGAAACCGCGCGGGC | 0.208 | 0.138 | 0.0208 | 0.0130
GGAAACCGCGGAGCC | 0.256 | 0.286 | 0.0200 | 0
GGAAACCGCGGGGAC | 0.256 | 0.101 | 0 | 0
GGAAACCGCGGUGCC | 0.144 | 0.0802 | 0 | 0
GGAAACCGCGUGGUC | 0.256 | 0.449 | 0.0108 | 0.0130
GGAAACCGCGUUAAC | 0.144 | 0.124 | 0.00668 | 0
GGAAACCGCUACAGC | 0.224 | 0.0895 | 0.0128 | 0
GGAAACCGCUCCAGC | 0.224 | 0.118 | 0.00668 | 0.00537
GGAAACCGCUCGAUC | 0.160 | 0.257 | 0.0987 | 0.0268
GGAAACCGCUUUUAC | 0.160 | 0.324 | 0.142 | 0.0614
GGAAACCGGACCGGC | 0.160 | 0.131 | 0.0128 | 0.00760
GGAAACCGGAUCAGC | 0.112 | 0.0781 | 0.0202 | 0
GGAAACCGGAUCUUC | 0.240 | 0.0812 | 0.00539 | 0
GGAAACCGGCUACAC | 0.304 | 0.0904 | 0.0195 | 0.00537
GGAAACCGGGCAGGC | 0.176 | 0.102 | 0.00539 | 0.00504
GGAAACCGGGUAACC | 0.128 | 0.0526 | 0.0377 | 0.00760
GGAAACCGGUAUCGC | 0.160 | 0.0657 | 0.0121 | 0.0183
GGAAACCGGUGUCUC | 0.224 | 0.0795 | 0.00668 | 0
GGAAACCGGUUGACC | 0.144 | 0.125 | 0 | 0
GGAAACCGGUUUUCC | 0.272 | 0.103 | 0.00539 | 0
GGAAACCGUACCACC | 0.192 | 0.0750 | 0.00539 | 0
GGAAACCGUAGACCC | 0.224 | 0.0909 | 0.0141 | 0
GGAAACCGUAUAACC | 0.224 | 0.112 | 0.0195 | 0.00537
GGAAACCGUCAACCC | 0.272 | 0.0578 | 0 | 0
GGAAACCGUGAUAGC | 0.256 | 0.0937 | 0.00668 | 0.00537
GGAAACCGUGCCAAC | 0.288 | 0.0829 | 0.0187 | 0.00537
GGAAACCGUGUAGUC | 0.336 | 0.193 | 0.0175 | 0
GGAAACCGUGUCGGC | 0.336 | 0.0985 | 0.00742 | 0
GGAAACCGUUUCCGC | 0.368 | 0.112 | 0.0187 | 0.00760

4 of these entries, quoted again:

With GGAAACCGCAGGAAC (pool 0.240) the assay gave IR 0.140; LM 0.00668; Sys 0.00537.
With GGAAACCGUUUCCGC (pool 0.368) the assay gave IR 0.112; LM 0.0187; Sys 0.00760.
With GGAAACCGGUGUCUC (pool 0.224) the assay gave IR 0.0795; LM 0.00668; Sys 0.
With GGAAACCGUCAACCC (pool 0.272) the assay gave IR 0.0578; LM 0; Sys 0.